According to ChEMBL document CHEMBL4152205, “Therapeutic journery of nitrogen mustard as alkylating anticancer agents: Historic to future perspectives” (2018):

Legend:
U-87 MG = assay: Cytotoxicity against human U87 cells assessed as reduction in cell viability after 3 days by MTT assay; conditions: u-87mg atcc
A549 = assay: Cytotoxicity against human A549 cells assessed as reduction in cell viability after 3 days by MTT assay
IMR-32 = assay: Cytotoxicity against human IMR32 cells assessed as reduction in cell viability after 3 days by MTT assay
COLO 205 = assay: Cytotoxicity against human COLO205 cells assessed as reduction in cell viability after 3 days by MTT assay
DU-145 = assay: Cytotoxicity against human DU145 cells assessed as reduction in cell viability

Structure (SMILES)	IC50 (U-87 MG) [µM]	IC50 (A549) [µM]	IC50 (IMR-32) [µM]	IC50 (COLO 205) [µM]	CC50 (DU-145) [µM]
COC(=O)C1=C(C)NC(C)=C(C(=O)OC)C1c1ccc(OCCN(CCCl)CCCl)cc1	23.7 to 74.4	23.7 to 74.4	23.7 to 74.4	23.7 to 74.4	–
CCCCCCCCCCCCCCCCOC(COC1O[C@H](CN)[C@@H](O)[C@H](O)[C@H]1NC(=O)CCCc1ccc(N(CCCl)CCCl)cc1)OC (some centres undefined)	–	–	–	–	6
COC(=O)C1=C(C)NC(C)=C(C(C)=O)C1c1ccc(N(CCCl)CCCl)cc1 (centres undefined)	23.7 to 74.4	23.7 to 74.4	23.7 to 74.4	23.7 to 74.4	–
